Source: US20090036437A1, “PHARMACEUTICAL COMPOSITION COMPRISING PHENOXAZINIUM COMPOUND AS AN ACTIVE INGREDIENT” (priority 2005, published 2009)

Assays:
Type in all cases: cell-based
[1] = test system: Leishmania donovani (MHOM/ET/67/L82 strain); experiment: in vitro growth-inhibiting screening assay, protozoa of Leishmaniasis; conditions: EC50 rat L6 cell / EC50 protozoa of Leishmaniasis
Method: This test was done using the protozoa of Leishmania donovani (MHOM/ET/67/L82 strain). The protozoa were subcultured using Syrian Golden hamster and an amastigote was obtained therefrom. The amastigotes were cultured in SM medium supplemented with 10% of heat-treated fetal calf serum (pH 5.4) under CO2 concentration of 5%, at 37° C.
A test sample was prepared by dissolving the test compounds according to the present invention and a positive control drug (Miltefosine) in DMSO to a predetermined concentration. Culture medium containing a predetermined number of the protozoa was added into each well of a 96-well culture plate, and the concentration of the amastigotes was measured by means of CASY cell analysis system (Dermany, Scharfe Co.). Test sample comprising the predetermined amount of the test compound, and DMSO without the test compound were added to the wells in duplicate.
(§1) After incubation of the culture plate for 72 hours in an incubator, a growth-inhibiting activity was assayed as follows. Alamar Blue aqueous solution (10 μL) was added to each well followed by a further two-hour culture. The culture plate was then attached to a fluorescence micro titer plate reader (Spectramax Gemeni XS; U.S. Molecular device Co.), the intensity of fluorescence at 588 nm was detected with excitation wave length of 536 nm to calculate an infection ratio of the protozoa with respect to a group trated with the test sample and a control group. A growth-inhibiting ratio was then calculated from the resulting infection ratio in accordance with the following equation to determine 50% growth-inhibiting concentration (EC50).
(§2) Growth-inhibiting ratio (%)=[1−(b−a)/(c−a)]×100 • a: Initial infection ratio; • b: Infection ratio of the test sample group; and • c: Infection ratio of the control group.
A selective toxicity coefficient, which is used as an index for the selective toxicity for the protozoa of Leishmaniasis, was calculated by the following equation, and the pharmaceutical effect was determined. […]

[2] = test system: Trypanosoma brucei rhodensiense (STIB 900 strain); experiment: in vitro growth-inhibiting screening assay, protozoa of African trypanosomiasis; conditions: EC50 rat L6 cell / EC50 protozoa of African trypanosomiasis
Method: This test was done using a trypomastigote of the protozoa of Trypanosoma brucei rhodensiense (STIB 900 strain) ranging in blood stream. MEM medium sterilized by filtration was supplemented with 25 mM of N-2-hydroxyethylpiperazine-2-ethanesulfonic acid (HEPES), 1 g/L of glucose, 1% of MEM non-essential amino acids, 0.2 mM of 2-mercaptoethanol, 2 mM of sodium pyruvate, 1 mM of hypoxathine and 15% of heat-treated horse serum. The protozoa were cultured under CO2 concentration of 5%, at 37° C.
A test sample was prepared by dissolving the test compounds according to the present invention and a positive control drug (Melarsoprol) in DMSO to a predetermined concentration. Culture medium containing the protozoa of 8×10^3, and the test sample comprising the predetermined amount of the test compound, and DMSO without the test compound were added into each well of 96-well culture plate to a final volume of 100 μL in duplicate.
as §1, with “Device” for “device”, “treated” for “trated”
as §2
A selective toxicity coefficient, which is used as an index for the selective toxicity for the protozoa of African trypanosomiasis, was calculated by the following equation, and the pharmaceutical effect was determined. […]

[3] = test system: Plasmodium Falciparum K1 strain; experiment: in vitro growth-inhibiting screening assay, chloroquine-resistant falciparum malaria; conditions: EC50 rat L6 cell / EC50 P. falciparum K1
Method: Plasmodium Falciparum K1 strain was used as a chloroquine-resistant protozoa of falciparum malaria. RMI-1640 sterilized by filtration was supplemented with human serum of a final concentration of 5% to be used as a culture medium. The malaria protozoa were cultured under O2 concentration of 3%, CO2 concentration of 4%, N2 concentration of 93% at 37° C.
A test sample was prepared by dissolving the test compounds according to the present invention and a positive control drug (chloroquine) in DMSO to a predetermined concentration. The erythrocytes infected with the cultured malaria protozoa were collected by centrifugation and so diluted with non-infected erythrocytes to have an initial infection ratio of 0.15%. The hematocrit value was then 2.5%. Culture mixture of the above malaria-infection culture medium (200 μL) was placed into each well of a 96-well culture plate, and the test sample comprising the predetermined amount of the test compound, and DMSO without the test compound were added to the wells in duplicate.
After culture for 48 hours at 37° C., hypoxanthine labeled with radioactive tritium (^3H) of 0.5 μCi was added to each well. After the culture in the same conditions for further 24 hours, the sample was taken on a glass fiber filter and washed with distilled water. Intensity of radiation was measured by means of plate liquid scintillation counter (Wallac Co.), and an infection ratio of the protozoa of malaria was calculated with respect to a group treated with the test sample and the control. A growth-inhibiting ratio was then calculated from the resulting infection ratio in accordance with the following equation to determine 50% growth-inhibiting concentration (EC50).
Growth-inhibiting ratio (%)=[1−(b−a)/(c−a)]×100 • a: Initial infection ratio; • b: Infection ratio of the test sample group; and • c: Infection ratio of the control group. In vitro Growth-Inhibiting Assay of Rat L6 Cells
Anti-malaria effect of the samples was assessed by their EC50 values for the chloroquine-resistant protozoa of falciparum malaria and the rat L6 cell. A chemotherapy coefficient, which is used as an index for the selective toxicity for the chloroquine-resistant protozoa of falciparum malaria was calculated by the following equation, and the pharmaceutical effect was determined.
Chemotherapy coefficient=(EC50 value of the test sample for rat L6 cell)/(EC50 value of the test sample for the chloroquine-resistant protozoa of falciparum malaria)

SMILES | Selective toxicity [1] | Selective toxicity [2] | Selective toxicity [3]
CN(C)c1ccc2nc3ccc(=[N+](C)C)cc-3oc2c1.CN(C)c1ccc2nc3ccc(=[N+](C)C)cc-3oc2c1.[Cl-].[Cl-].[Cl][Zn][Cl] [Compound A-3] | 10 | 16 | 570
CN1CCN(c2cc(O)c3nc4ccc(=[N+](C)C)cc-4oc3c2)CC1.Cl.[Cl-] [Compound A-14] | – | – | 440
CCCC[N+](CCCC)=c1ccc2nc3ccc(N(CC)CC)cc3oc-2c1.[Cl-] [Compound A-6] | 36 | 12 | 350
C[N+](C)=c1ccc2nc3c(O)cc(N4CCN(CCO)CC4)cc3oc-2c1.Cl.[Cl-] [Compound A-15] | – | – | 390
CCN(CC)c1ccc2nc3ccc(=[N+](CC)CC)cc-3oc2c1.[Cl-] [A-1 (>95% purity)] | – | – | 9600
CN(C)c1ccc2nc3ccc(N4CCNCC4)cc3[o+]c2c1.Cl.[Cl-] [Compound A-11, 3-dimethylamino-7-(1-piperazino) phenoxazinium chloride mono-hydrochloride salt] | – | – | 2000
CCCC[N+](CCCC)=c1ccc2nc3ccc(N(C)C)cc3oc-2c1.[O-][Cl+3]([O-])([O-])[O-] [Compound A-7] | 68 | 3.6 | 270
